Results of unrelated studies side by side (data: NIAID ChemDB).

Common to all: tests in culture; species: HIV-1; cells: H9; read-out: EC50

ECn is the concentration giving n% inhibition of infection, replication or growth. Neighbouring rows are from separate reports. Blank or dashed fields: not listed here.

{"compound": "COc1c(O)cc2c3c1-c1cc(O)ccc1C[C@H]3N(C)CC2", "strain or isolate": "IIIB", "method": "p24", "value": "<0.8 µg/mL"}
{"compound": "CCOc1ccc(Cc2c3cc(OCC)c(OCC)cc3cc[n+]2C)cc1OCC", "strain or isolate": "IIIB", "method": "p24", "value": ">17.1 µg/mL"}
{"compound": "CCCC1(CCC)CC(O)=C(C(c2cccc(NS(=O)(=O)c3cn(C)cn3)c2)C2CC2)C(=O)O1", "strain or isolate": "IIIB", "value": ">1 µM"}
{"compound": "CCCC1=[N+](Cc2ccccc2)CCc2cc(OCc3ccccc3)c(OCc3ccccc3)cc21", "strain or isolate": "IIIB", "method": "p24", "value": ">0.197 µg/mL"}
{"compound": "COc1cc2c(cc1OC)N1CCc3cc4c(cc3[C@@H]1CC2)OCO4", "strain or isolate": "IIIB", "method": "p24", "value": "<0.1 µg/mL"}
{"compound": "CC(C)CC(SCc1ccccc1)c1c(O)cc(-c2ccccc2)oc1=O", "strain or isolate": "IIIB", "value": "28 µM"}
{"compound": "Cc1cn([C@@H]2O[C@H](CO)[C@@H](N=[N+]=[N-])[C@@H]2F)c(=O)[nH]c1=O", "strain or isolate": "IIIB", "method": "antigen", "value": ">100 µM"}
{"compound": "Nc1nc(=O)n([C@@H]2C[C@H](O)[C@@H](CO)O2)cc1-c1ccccn1", "strain or isolate": "IIIB", "method": "RT activity", "value": ">10 µg/mL"}
{"compound": "COc1cc2c[n+](C)c3c4cc5c(cc4c(CC(C)=O)cc3c2cc1OC)OCO5", "strain or isolate": "IIIB", "method": "p24", "value": "<0.1 µg/mL"}
{"compound": "COc1cc(C[C@@](O)(C(N)=O)[C@H](CO)Cc2ccc(OC)c(OC)c2)ccc1O", "strain or isolate": "IIIB", "method": "syncytia", "value": "<1.8 µM"}
{"compound": "CCC(C1=C(O)C2CCCCCCC2OC1=O)c1cccc(NS(=O)(=O)c2ccc(C#N)cn2)c1", "strain or isolate": "IIIB", "method": "p24", "value": "2.9 µM"}
{"compound": "Nc1nc(=O)n([C@H]2C[C@H](O)[C@@H](CO)O2)cc1-c1nccs1", "strain or isolate": "IIIB", "method": "RT activity", "value": ">10 µg/mL"}
{"compound": "COc1cc2c(cc1OC)[C@@H](Cc1ccc(OC)c(Oc3cc4c(cc3OC)CCN(C)[C@@H]4Cc3ccc(O)cc3)c1)N(C)CC2", "strain or isolate": "IIIB", "method": "p24", "value": "<0.8 µg/mL"}
{"compound": "COc1cc([C@H]2OC[C@H]3[C@@H]2CO[C@@H]3c2ccc3c(c2)OCO3)cc(OC)c1OC", "strain or isolate": "IIIB", "method": "p24", "value": "<10.6 µM"}
{"compound": "C=C(c1ccc(OC)c(OC)c1)c1nccc2cc(OC)c(OC)cc12", "strain or isolate": "IIIB", "method": "p24", "value": ">1.85 µg/mL"}
{"compound": "COc1c2ccoc2nc2c(OC)cccc12", "strain or isolate": "IIIB", "method": "p24", "value": "<0.1 µg/mL"}
{"compound": "Cc1ccsc1-c1cn([C@H]2C[C@H](O)[C@@H](CO)O2)c(=O)[nH]c1=O", "strain or isolate": "IIIB", "method": "RT activity", "value": ">10 µg/mL"}
{"compound": "O=c1oc(-c2ccccc2)cc(O)c1C(SC1CCCC1)C1CCCC1", "strain or isolate": "IIIB", "value": "14 µM"}
{"compound": "Nc1nc(=O)n([C@H]2C[C@H](O)[C@@H](CO)O2)cc1-c1cccnc1", "strain or isolate": "IIIB", "method": "RT activity", "value": ">10 µg/mL"}
{"compound": "Nc1ccn([C@H]2CC[C@@H](CO)O2)c(=O)n1", "strain or isolate": "IIIB", "method": "syncytia", "value": "0.013 µM"}
{"compound": "CC(C)Nc1cccnc1N1CCN(C(=O)c2cc3cc(NS(C)(=O)=O)ccc3[nH]2)CC1", "strain or isolate": "IIIB", "method": "p24", "value": "0.006 µM"}
{"compound": "CCC(C1=C(O)CC(CC)(c2cccc(NS(=O)(=O)c3ccc(C#N)cn3)c2)OC1=O)c1cccc(NS(=O)(=O)c2ccc(C#N)cn2)c1", "strain or isolate": "IIIB", "method": "p24", "value": ">3 µM"}
{"compound": "CCC(c1cccc(NS(=O)(=O)c2ccc(C#N)cn2)c1)c1c(O)c2c(oc1=O)CCCCCCCC2", "strain or isolate": "IIIB", "method": "p24", "value": ">3 µM"}
{"compound": "CCCC1(CCC)CC(O)=C(C(CC)c2cccc(NS(=O)(=O)c3cn(C)cn3)c2)C(=O)O1", "strain or isolate": "IIIB", "value": "0.08 µM"}
{"compound": "COc1cc2cc[n+](C)c(Cc3ccc4c(c3)OCO4)c2cc1OC", "strain or isolate": "IIIB", "method": "p24", "value": ">22.4 µg/mL"}
{"compound": "CCCCCC/C=C\\C/C=C\\CCCCCCC(=O)O[C@H](COC(=O)CCCCCCCCCCCCCCC)COP(=O)([O-])OCC[N+](C)(C)C", "method": "p24 / ELISA", "value": "15 µM"}
{"compound": "Nc1nc(=O)n([C@@H]2C[C@H](O)[C@@H](CO)O2)cc1-c1ccco1", "strain or isolate": "IIIB", "method": "RT activity", "value": ">10 µg/mL"}
{"compound": "O=C(O)c1cc(SSc2ccc([N+](=O)[O-])c(C(=O)O)c2)ccc1[N+](=O)[O-]", "strain or isolate": "IIIB", "method": "p24", "value": "300 µM"}
{"compound": "O=C(O)[C@H]1O[C@@H](Oc2c(-c3ccc(O)c(O)c3)oc3cc(O)cc(O)c3c2=O)[C@H](O)[C@@H](O)[C@@H]1O", "strain or isolate": "IIIB", "method": "p24", "value": "2 µg/mL"}
{"compound": "COc1ccc2c3ccn(C)c(C)c-3nc2c1", "strain or isolate": "IIIB", "method": "p24", "value": "4.5 µM"}
{"compound": "CCC(C1=C(O)C2CCCCC2OC1=O)c1cccc(NS(=O)(=O)c2ccc(C#N)cc2)c1", "strain or isolate": "IIIB", "method": "p24", "value": ">3 µM"}
{"compound": "Cc1ccc(C(=O)OC[C@H]2O[C@@H](n3cc(-c4ccncc4)c(N)nc3=O)C[C@@H]2OC(=O)c2ccc(C)cc2)cc1", "strain or isolate": "IIIB", "method": "RT activity", "value": "<10 µg/mL"}
{"compound": "C=C(C)OC(=O)N1c2cc(Cl)ccc2NC(=S)C1(C)C", "strain or isolate": "A2(RT-L74V G190E)", "changes": "RT-L74V G190E", "method": "p24", "value": ">1 µg/mL"}
{"compound": "COc1cc2c3c(c1OC)-c1cc(O)ccc1C[C@H]3N(C)CC2", "strain or isolate": "IIIB", "method": "p24", "value": "0.8 µg/mL"}
{"compound": "CC(C)Nc1cccnc1N1CCN(C(=O)c2cc3cc(NS(C)(=O)=O)ccc3[nH]2)CC1", "strain or isolate": "MN", "method": "p24", "value": "0.18 µg/mL"}
{"compound": "Oc1ccc(C[C@@H]2NCCc3cc(O)c(O)cc32)cc1", "strain or isolate": "IIIB", "method": "p24", "value": "<0.8 µg/mL"}
{"compound": "CCC(c1cccc(NS(=O)(=O)c2ccc(C#N)cn2)c1)c1c(O)c2c(oc1=O)CCCC2", "strain or isolate": "IIIB", "method": "p24", "value": ">3 µM"}
{"compound": "Cc1cn([C@H]2C[C@H](N=[N+]=[N-])[C@@H](CO)O2)c(=O)[nH]c1=O", "strain or isolate": "IIIB", "method": "p24", "value": "<0.001 µg/mL"}
{"compound": "COc1cc2c(cc1OCc1ccccc1)C(Cc1ccc(Br)cc1)N(Cc1ccccc1)CC2", "strain or isolate": "IIIB", "method": "p24", "value": "5.3 µg/mL"}
{"compound": "c1cc2c(cc1[C@H]1OC[C@H]3[C@@H]1CO[C@@H]3c1ccc3c(c1)OCO3)OCO2", "strain or isolate": "IIIB", "method": "p24", "value": "<8.2 µM"}
{"compound": "O=c1oc(-c2ccccc2)cc(O)c1C(CC1CC1)SC1CCCCC1", "strain or isolate": "IIIB", "value": "25 µM"}
{"compound": "Cc1cn([C@H]2C[C@H](N=[N+]=[N-])[C@@H](CO)O2)c(=O)[nH]c1=O", "method": "p24 / ELISA", "value": ">50 µM"}
{"compound": "O[C@H]1OC[C@H](Cc2ccc3c(c2)OCO3)[C@H]1Cc1ccc2c(c1)OCO2", "strain or isolate": "IIIB", "method": "RT activity", "value": "<12.7 µM"}

3 of the rows above, restated:

compound | strain or isolate | changes | method | value
COc1c2ccoc2nc2c(OC)cccc12 | IIIB | - | p24 | <0.1 µg/mL
O=c1oc(-c2ccccc2)cc(O)c1C(SC1CCCC1)C1CCCC1 | IIIB | - | - | 14 µM
CCCC1(CCC)CC(O)=C(C(CC)c2cccc(NS(=O)(=O)c3cn(C)cn3)c2)C(=O)O1 | IIIB | - | - | 0.08 µM